The record followed here is patent US6660255B1, “Inhibition of gene transcription by polyamide DNA-binding ligands” (California Institute of Technology, priority 1997, dated 2003).

Sequences of proteins named here, by UniProt entry; tags and fusion partners are left off.
UniProt P20226, whole entry: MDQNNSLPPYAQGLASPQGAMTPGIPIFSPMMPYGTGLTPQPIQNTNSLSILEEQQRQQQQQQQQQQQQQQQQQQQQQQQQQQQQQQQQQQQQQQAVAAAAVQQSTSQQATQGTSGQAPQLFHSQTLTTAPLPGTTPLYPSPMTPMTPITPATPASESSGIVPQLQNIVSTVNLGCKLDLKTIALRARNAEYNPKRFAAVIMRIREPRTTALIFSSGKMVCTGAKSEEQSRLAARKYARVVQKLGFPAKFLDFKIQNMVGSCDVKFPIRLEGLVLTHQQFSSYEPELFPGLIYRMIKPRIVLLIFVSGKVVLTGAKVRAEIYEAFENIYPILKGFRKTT

The target in the data set is TBP (rhTBP) (Homo sapiens) (UniProt P20226). In words: binding assay. The following applies: TBP binding inhibited by polyamide CMV-1; method not stated; purified recombinant protein; protein details: Promega.

The exact form of at least one protein or probe is not confirmed.

For “AGGTCTATAA (double strand) [CMV MIEP TATA region]”, the binding result is “binds”.
